Fold change is the IC50 on the isolate divided by the IC50 on a reference virus; 1 = unchanged, higher = more resistant. Changes are given against the subtype B consensus. No active / inactive call. The values were gathered from many studies (numbered anew) with different assays, which the source does not name. Most viruses are clinical isolates; some are laboratory strains or clones with known resistance changes. Isolates with mixed residues are left out; stretches that were not sequenced show no change. Round top values that many isolates share are read here as limits; other very high values and 0.1 may be limits too.
Experiments:
Test in all cases: fold change of IC50 against reference virus; higher = more resistant
[1] = compound: O=c1[nH]cnc2c1ncn2[C@H]1CC[C@@H](CO)O1 [didanosine]
Procedure: (§1)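 Cell-culture drug susceptibility tests of virus bearing the reverse transcriptase of each isolate, gathered from many studies.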

[2] = compound: Nc1ccn([C@H]2CC[C@@H](CO)O2)c(=O)n1 [zalcitabine]
Procedure: as §1

[3] = compound: Cc1ccnc2c1NC(=O)c1cccnc1N2C1CC1 [nevirapine]
Procedure: as §1

[4] = compound: O=C1Nc2ccc(Cl)cc2[C@@](C#CC2CC2)(C(F)(F)F)O1 [efavirenz]
Procedure: as §1

[5] = compound: Cc1cn([C@H]2C=C[C@@H](CO)O2)c(=O)[nH]c1=O [stavudine]
Procedure: as §1

[6] = compound: Nc1nc(NC2CC2)c2ncn([C@H]3C=C[C@@H](CO)C3)c2n1 [abacavir]
Procedure: as §1

[7] = compound: Cc1cn([C@H]2C[C@H](N=[N+]=[N-])[C@@H](CO)O2)c(=O)[nH]c1=O [zidovudine]
Procedure: as §1

[8] = compound: CC(C)Nc1cccnc1N1CCN(C(=O)c2cc3cc(NS(C)(=O)=O)ccc3[nH]2)CC1 [delavirdine]
Procedure: as §1

| Test System | fold change of IC50 against reference virus [1] | fold change of IC50 against reference virus [2] | fold change of IC50 against reference virus [3] | fold change of IC50 against reference virus [4] | fold change of IC50 against reference virus [5] | fold change of IC50 against reference virus [6] | fold change of IC50 against reference virus [7] | fold change of IC50 against reference virus [8] |
| --- | --- | --- | --- | --- | --- | --- | --- | --- |
| HIV-1 isolate 449 (reverse transcriptase changes: L74V K102Q S162C, study 39) | 6 | 14 | – | – | – | – | – | – |
| HIV-1 isolate 1199 (reverse transcriptase changes: V75I F77L K102Q Q151M S162C K277R, study 9) | 100 | – | 2 | 2 | 100 | 50 | – | – |
| HIV-1 isolate 936 (reverse transcriptase changes: K122E F214L A272P K277R A376T A400T D460N S468T H483Y K512Q S519N, study 74) | 1 | 1 | – | – | – | – | 0.4 | – |
| HIV-1 isolate 323 (reverse transcriptase changes: M41L K43Q S68G V118I M184V Q207E L210W R211K T215Y L228H K277R T286A I293V E297K, study 119) | 1.7 | – | 0.3 | – | 1.7 | 5.5 | 5.5 | 0.2 |
| HIV-1 isolate 895 (reverse transcriptase changes: K65R K122E F214L A272P K277R A376T A400T D460N S468T H483Y K512Q S519N, study 141) | 8.6 | 4 | – | – | – | – | 1 | – |
| HIV-1 isolate 1645 (reverse transcriptase changes: K122E F214L A272P K277R M357T A376T A400T N447S D460N S468T S519N, study 102) | 1 | 1 | – | – | – | – | 1 | – |
| HIV-1 isolate 36 (reverse transcriptase changes: L74V K122E F214L T215Y A272P K277R A376T A400T D460N S468T H483Y K512Q S519N, study 51) | 8.6 | 15 | – | – | – | – | 1.7 | – |
| HIV-1 isolate 1134 (reverse transcriptase changes: V35M T39A E40F M41L K43E D67N K103S V118I K122E R172K D177E I178F G190A Q207N L210W R211K T215Y K219R K238T A272P T286A I293V, study 15) | 4.4 | – | 218 | 85 | 20 | 20 | 555 | – |
| HIV-1 isolate 1026 (reverse transcriptase changes: M41L K102Q S162C M184V T215Y K277R, study 59) | 1.3 | – | 0.4 | 0.3 | 1.3 | 6.9 | 1.7 | 0.1 |
| HIV-1 isolate 558 (reverse transcriptase changes: K65R K122E F214L A272P K277R A376T A400T D460N S468T H483Y K512Q S519N, study 74) | 3.1 | 12 | – | – | – | – | 0.4 | – |
| HIV-1 isolate 517 (reverse transcriptase changes: K102Q Q151M S162C M184V K277R, study 59) | 6.8 | – | 1.5 | 1.2 | 2.4 | 20.9 | 2.1 | 1.5 |
| HIV-1 isolate 843 (reverse transcriptase changes: D67N T69D K102Q S162C K277R I293V R358K V435I S468P K550G, study 142) | 1 | 1.4 | – | – | – | – | 1 | – |
| HIV-1 isolate 1400 (reverse transcriptase changes: K102Q S162C K277R I293V R358K V435I S468P K550G, study 142) | 1 | 1 | – | – | – | – | 1 | – |
| HIV-1 isolate 1556 (reverse transcriptase changes: T69D K102Q S162C L210W T215Y K277R I293V R358K V435I S468P K550G, study 142) | 1 | 2 | – | – | – | – | 1.7 | – |
| HIV-1 isolate 1228 (reverse transcriptase changes: T69D K102Q S162C T165I K277R I293V R358K V435I S468P K550G, study 142) | 1 | 4 | – | – | – | – | 1 | – |
| HIV-1 isolate 405 (reverse transcriptase changes: D67N K102Q S162C T215Y K277R I293V R358K V435I S468P K550G, study 142) | 1.3 | 1.3 | – | – | – | – | 8.1 | – |
| HIV-1 isolate 1324 (reverse transcriptase changes: D67N T69D K102Q S162C T215Y K277R I293V R358K V435I S468P K550G, study 142) | 1 | 4 | – | – | – | – | 8.8 | – |
| HIV-1 isolate 218 (reverse transcriptase changes: T39A E40F M41L K43E N54I D67N S68G V75M W88C G190A R211K T215Y K219Q K223Q, study 88) | 3.2 | – | 54 | 2.5 | – | 12 | – | 0.1 |
| HIV-1 isolate 669 (reverse transcriptase changes: K122E F214L T215Y A272P K277R A376T A400T D460N S468T H483Y K512Q S519N, study 51) | 1.3 | 1 | – | – | – | – | 20 | – |
| HIV-1 isolate 567 (reverse transcriptase changes: V35I M41L E44D D67N T69D K102R K104N V118I K122E Q207E L210W R211K T215Y L246P, study 142) | 1 | 4 | – | – | – | – | 67 | – |
| HIV-1 isolate 265 (reverse transcriptase changes: K122E M184V F214L A272P K277R A376T A400T D460N S468T H483Y K512Q S519N, study 74) | 5.4 | 5 | – | – | – | – | 0.5 | – |
| HIV-1 isolate 75 (reverse transcriptase changes: K65R S68G K122E F214L A272P K277R A376T A400T D460N S468T H483Y K512Q S519N, study 141) | 4.4 | 6 | – | – | – | – | 1.6 | – |
| HIV-1 isolate 1447 (reverse transcriptase changes: A62V V75I F77L F116Y V118I Q151M K166R I202V, study 77) | 22 | 250 | – | – | – | – | 675 | – |
| HIV-1 isolate 914 (reverse transcriptase changes: K103R K122E F214L A272P K275R K277R K350R A376T A400T D460N S468T H483Y K512Q S519N, study 102) | 1 | 1 | – | – | – | – | 1 | – |
| HIV-1 isolate 580 (reverse transcriptase changes: L92I K122E D123S R211K V245M I326V I329L R358K T377I K390R T403M R461K L469I, study 103) | 0.8 | 1 | – | – | – | – | 0.4 | – |
| HIV-1 isolate 488 (reverse transcriptase changes: D67N T69D K102Q S162C L210W T215Y K277R I293V R358K V435I S468P K550G, study 142) | 1.5 | 3.6 | – | – | – | – | 100 | – |
| HIV-1 isolate 1549 (reverse transcriptase changes: K122E F214L A272P K277R A376T A400T D460N S468T H483Y K512Q S519N, study 141) | 1 | 1 | – | – | – | – | 1 | – |
| HIV-1 isolate 1029 (reverse transcriptase changes: V35T D67N T69D K70R L100I K102R K103N I135L E169D K173A Q174K I178L Q207A R211K T215F K219Q L228H V245Q E248D A272P T286A E291D V292I E297T, study 109) | 1.2 | – | 108 | 250 | 2.4 | 1.7 | 82 | – |

Source: the supplement of paper PMC3578754
